We go through eight molecules from patent publication US20180214569A1 (Regeneron, published 2018).

Sequences and labels used below:
B1: H1H15405P (antibody, V domains shown)
VH: EVQLVESGGGLVQPGGSLRLSCGASGFTFSYYWMTWVRQAPGKGLEWVANINQDGSEKFYVDSVRGRFTISRDNAKKSLYLQMNSLRAEDTAVYYCARDGYCSSIGCYNLYGMDVWGQGTTVTVSS
VL: DIQMTQSPSSLSASVGDRVTITCRASQNINKYLNWYQQKPGQAPKLLIYTTSSLQSGVPSRFSGSGSGTDFTLTISSLQPEDFATYSCQQSYNSPLTFGGGTKVEIK
B2: H1H15380P (antibody, V domains shown)
VH: QVQLQESGPGLVKPSETLSLMCTVSGGSINNYYWSWIRQPPGKGLEWIGYIYNGGITKYNPSLKSRVTISVDTSKSQISLKLNSVTAADTAFYYCTKEQLERREGHIWFDPWGQGTLVTVSS
VL: DIQMTQSPSSLSASVGDRVTITCRASQTINNYLNWYHQKPGKAPKLLIYGTSSLQSGVPSRFSGSGSGTEFALTISSLQPEDFATYYCQQSSSTPYTFGQGTKLEIK
B3: H1H15404P (antibody, V domains shown)
VH: QVQLQESGPGLVKPSETLSLTCTVSGGSISGYFWGWIRQTPGKGLEWIGYIFYSGSTHYNPSFKSRVTMSVDTSKNQFALKLRSVTAADTAKYYCSRQREYYGSGNYRYFGMDVWGQGTTVTVSS
VL: AIQMTQSPSSLSASVGERVTITCRASQDIRDDLGWYQQRPGKAPNLLIYAASSLHSGVPSRFSGSGSGTDFTLTISSLQPEDFATYYCLQDYNYPWTFGQGTKVEIK
B4: H1H15375P (antibody, V domains shown)
VH: QVQLVESGGGGVQPGRSLRLSCEASGFTFSDYGMQWVRQAPGKGLEWVAVIWDDGRKKYYADSVKGRFTVSRDNSKNTLYLEINSLRVEDTAVYYCAREGSSSSGRYFLYGMDVWGQGTTVTVSS
VL: DIQMTQSPSSLSASVGDRVTITCRASQRISSYLNWYQQKLGKAPKLLISVASSLQSGVPSRFSGSGSGTDFTLTISSLQPEDFGIYYCQQSYNTPPWTFGQGTKVEIK
B5: H1H15408P (antibody, V domains shown)
VH: EVQLVESGGGLVQPGGSLRLSCAASGFTFSRYDMSWVRQAPGKGLEWVSAISYSGDSTYYADSVQGRFTISRDNSKNTLYLQMNSLRAEDTALYHCAKDNGYSGTYYYYYGMDVWGQGTTVTVSS
VL: DIQMTQSPSSLSASVGDRVTITCRASQGISNYLAWFQQKPGKAPKFLIYAASSLQSGVPSKFSGSGSGTDFTLTISSLQPEDFATYYCQQYNSYPYTFGQGTKLEIK
B6: H1H15399P (antibody, V domains shown)
VH: EVQLVESGGGLVQPGGSLRLSCAASGFTFSSSAMSWVRQAPGKGLEWVSTLNVGADSTFYAGSVRGRFTISRDNSKNTLFLQMNSLRAEDTAVYYCAKDWGGIPYYYYYYGMDVWGQGTTVTVSS
VL: DIQLTQSPSFLSASVGDRVTITCWASQGISSYLAWYQQKPGKAPNLLIYTASTLQSGVPSRFSGSGSGTEFTLTISSLQPEDFATYYCQQLNSYPLTFGGGTKVEIK
B7: H1H15381P (antibody, V domains shown)
VH: EVQLVESGGGLVQPGGSLRLSCAASGFTFSRYDMHWVRQVTGKGLEWVSVIGTAGDTYYPDSVKGRFTISRENAKNSLSLQMNSLRAGDTAVYYCTRSYNWNFPFGYWGQGTLVTVSS
VL: DIQMTQSPSTLSASVGDRVTITCRASQSISSWLAWYQQKPGKAPRLLIYEASSLETGVPSRFSGSGSGTEFTLTISSLQPDDFATYYCQQYNRYPWTFGQGTKVEIK
B8: H1H15414P (antibody, V domains shown)
VH: EVQLVESGGDLVQPGGSLRLSCAASGFTFSSFEMNWVRQAPGKGLEWVSYISSSGSTIYYADSVKDRFTVSRDKDKNSLYLQMNSLRAEDTAVYYCARGSWNQPYFDYWGQGTLVTVSS
VL: DIQMTQSPSTLSASVGDRVTITCRASQSISSWLAWYQLKPGKAPKVLIYKASSLESGVPSRFSGSGSGTEFTLTINSLQPDDFATYYCQQYNSWTFGQGTKVEIK

One test addresses T1, mutant Hemolysin A (Hla-H35L) (Staphylococcus aureus). As to the kind of experiment: SPR (Biacore T200), mAb captured via anti-human Fc, toxin injected, 25 C.
In general, Kd refers to a measure of binding affinity in units of concentration. What is called koff is the rate constant with which the complex falls apart. As usually defined, the kon is the second-order rate constant of association. A lower kon goes with slower complex formation. B1: the Kd amounted to 0.237 nM, the koff is 5.82e-05 s⁻¹, the kon was 246000 M⁻¹ s⁻¹ and the t1/2 was determined as 199 min.

B2: the Kd was found to be 0.279 nM, the koff amounted to 0.000387 s⁻¹, the association rate constant (kon) came out at 1.39e+06 M⁻¹ s⁻¹ and the t1/2 turned out to be 30 min.

B3 had a Kd of 1.1 nM, a koff of 0.000294 s⁻¹, a kon of 268000 M⁻¹ s⁻¹ and a t1/2 of 39 min.

The molecule B4 registered a Kd of 0.665 nM, a koff of 0.000117 s⁻¹, a kon of 176000 M⁻¹ s⁻¹ and a t1/2 of 99 min.

As to B5, binding was characterised by a dissociation constant (Kd) of 2.03 nM, the koff is 0.000705 s⁻¹, the kon worked out at 347000 M⁻¹ s⁻¹ and the t1/2 was 16 min.

In turn, B6 had a Kd of 0.1 nM, a koff of 0.0001 s⁻¹, a kon of 998000 M⁻¹ s⁻¹ and a t1/2 of 116 min.

In the case of B7, the Kd was determined as 0.54 nM, the koff stood at 0.00122 s⁻¹, the kon was found to be 2.26e+06 M⁻¹ s⁻¹ and the t1/2 is 9 min.

Another test addresses T2, wild type S. aureus Hemolysin A toxin (Staphylococcus aureus). Nature of the test: cell-based or functional assay.
With B1, the “IC50 [M] for Hemolysin A neutralization (THP-1 cytotoxicity assay)” value (“IC50 [M] for Hemolysin A neutralization” for short) was found to be 5.37e-09 M.

Regarding B2, the “IC50 [M] for Hemolysin A neutralization” value was determined as 7.84e-09 M.

On to B8, for which the “IC50 [M] for Hemolysin A neutralization” value came out at 1.72e-09 M.

Regarding B3, the “IC50 [M] for Hemolysin A neutralization” value is 6.31e-09 M.

Consider B4, for which the “IC50 [M] for Hemolysin A neutralization” value stood at 3.96e-09 M.

For B5, the “IC50 [M] for Hemolysin A neutralization” value was 6.41e-09 M.

With B6, the “IC50 [M] for Hemolysin A neutralization” value was 1.31e-09 M.

For the molecule B7, the “IC50 [M] for Hemolysin A neutralization” value stood at 4.21e-09 M.

The target of the next test is T1, mutant Hemolysin A (Hla-H35L). As to the kind of experiment: SPR (Biacore T200), mAb captured via anti-human Fc, toxin injected, 37 C. (Surface plasmon resonance follows binding to a sensor surface in real time, without labels.)
As to B1, the affinity, expressed as Kd, was 0.354 nM; the dissociation rate constant (koff) was 0.000152 s⁻¹; the kon was determined as 430000 M⁻¹ s⁻¹; the t1/2 amounted to 76 min.

With B2, the Kd amounted to 0.695 nM, the dissociation rate constant (koff) turned out to be 0.00131 s⁻¹, the kon came out at 1.88e+06 M⁻¹ s⁻¹ and the t1/2 came to 9 min.

On to B3, for which binding was characterised by a dissociation constant (Kd) of 5.41 nM, the koff came to 0.00181 s⁻¹, the kon is 335000 M⁻¹ s⁻¹ and the t1/2 amounted to 6 min.

In turn, B4 had a Kd of 1.19 nM, a koff of 0.00037 s⁻¹, a kon of 311000 M⁻¹ s⁻¹ and a t1/2 of 31 min.

On to B5, for which the Kd was found to be 6.68 nM, the koff amounted to 0.00293 s⁻¹, the kon was 438000 M⁻¹ s⁻¹ and the t1/2 amounted to 4 min.

Consider B6, for which the Kd turned out to be 0.196 nM, the koff was determined as 0.000278 s⁻¹, the kon worked out at 1.42e+06 M⁻¹ s⁻¹ and the t1/2 is 42 min.

In the case of B7, the Kd was 1.9 nM, the off-rate (koff) amounted to 0.00466 s⁻¹, the kon worked out at 2.45e+06 M⁻¹ s⁻¹ and the t1/2 was found to be 2.5 min.

The target in another test is T2, wild type S. aureus Hemolysin A toxin.
Assay: not given
As for B1, binding was put at a Kd of 0.862 nM, the koff turned out to be 6.69e-05 s⁻¹, the kon was 77600 M⁻¹ s⁻¹ and the t1/2 is 173 min.

Regarding B8, binding was put at a Kd of 0.318 nM, the koff was determined as 0.000115 s⁻¹, the on-rate constant (kon) is 362000 M⁻¹ s⁻¹ and the t1/2 was 100 min.

The molecule B4 registered a Kd of 2.12 nM, a koff of 0.000127 s⁻¹, a kon of 60000 M⁻¹ s⁻¹ and a t1/2 of 91 min.

For B5, the Kd was 7.62 nM, the koff stood at 0.000832 s⁻¹, the kon turned out to be 109000 M⁻¹ s⁻¹ and the t1/2 stood at 14 min.
